Anti-infective test results gathered from many reports (values: NIAID ChemDB through PubChem).

Common to all: tests on isolated targets; agent: HIV-1; target: Reverse transcriptase

ICn is the concentration giving n% inhibition. Conditions beyond the fields shown may differ between rows. a–b is a range or a potency band. An empty or dashed field is not shown.

| structure | measure | strain or isolate | method | mutations | value |
|---|---|---|---|---|---|
| CCN1c2ncc(CCOc3ccc(-c4cnc[nH]4)cc3C)cc2C(=O)N(C)c2cccnc21 | IC50 | IIIB | nucleotide incorporation / radiometric |  | <0.05 µM |
| C#Cc1ccc(Nc2nccc(Oc3c(C)cc(-c4cn(CCc5cccs5)nn4)cc3C)n2)cc1 | IC50 |  | RT activity / ELISA |  | 0.44 µM |
| Nc1cc2c(c(N3CCOCC3)c1)CCN(c1nn3c(C4CC4)nnc3c3ccccc13)C2 | IC50 | KER2008 | RT activity / fluorescence |  | 14.2 µM |
| CCN1c2ncc(CCOc3ccc(-c4ccc(C(=O)O)s4)cc3)cc2C(=O)N(C)c2cccnc21 | IC50 | IIIB | nucleotide incorporation / radiometric | RT-K103N Y181C | 0.05–0.1 µM |
| CC(C)=CCOc1cc(NC(=S)c2ccoc2C)ccc1Cl | IC50 | IIIB |  |  | 0.023 µM |
| CNc1ccccc1C(=O)NCCC[Si](C)(C)O[Si](C)(C)CCCNC(=O)c1ccccc1NC | IC50 |  |  |  | >2000 µM |
| C=C(C)C1CC[C@]2(C(=O)O)CC[C@]3(C)C(CCC4[C@@]5(C)C[C@@H](O)[C@H](C(=O)[O-])C(C)(C)C5CC[C@]43C)C12 | IC50 |  | RT activity |  | 16.3 µg/mL |
| C#Cc1ccc(Nc2nccc(Oc3c(C)cc(-c4cn(Cc5ccc(C(=O)OC)cc5)nn4)cc3C)n2)cc1 | IC50 |  | RT activity / ELISA |  | 0.24 µM |
| CCOC(=O)c1c(C(C)C)c(C#N)c(=N)n2ccccc12 | Ki | LAV | RT activity |  | 64.5 µM |
| O=C(CCCCC(=O)Nc1ccc(Br)cc1)Nc1ccccc1 | IC50 |  |  |  | >100 µg/mL |
| C[Si](C)(CCCn1ccnc1)O[Si](C)(C)CCCn1ccnc1 | IC50 |  |  |  | >2000 µM |
| O=C(O)/C=C/c1ccc(O)c(O)c1 | IC50 |  | nucleotide incorporation |  | >1000 µM |
| CCN1c2ncc(CCOc3ccc(C(=O)N=c4ccccn4O)cc3C)cc2C(=O)Nc2c(C)ccnc21 | IC50 | IIIB | nucleotide incorporation / radiometric | RT-K103N Y181C | 0.05–0.1 µM |
| Cc1ccccc1CN1C(C)C(=O)Nc2ccc(Cl)cc2S1(=O)=O | IC50 |  | nucleotide incorporation / radiometric |  | 3.91 µM |
| CCN1c2ncc(CCOc3ccc(C(=O)c4ccc(C(=O)O)cc4)cc3C)cc2C(=O)N(C)c2cccnc21 | IC50 | IIIB | nucleotide incorporation / radiometric | RT-K103N Y181C | 0.05–0.1 µM |
| Cc1nnc2c3ccccc3c(N3CCc4cccnc4C3)nn12 | IC50 | 98US_MSC5016 | RT activity / fluorescence |  | 2.18 µM |
| C[Si](C)(CCCNC(=O)c1cc(Cl)ccc1N)O[Si](C)(C)CCCNC(=O)c1cc(Cl)ccc1N | IC50 |  |  |  | 20 µM |
| CCN1c2ncc(CCOc3cccc4c3ccc[n+]4[O-])cc2C(=O)N(C)c2ccc(Cl)nc21 | IC50 |  | nucleotide incorporation / radiometric | RT-V106A | 0.661 µM |
| O=C(CCCCC(=O)Nc1ccccc1C(=O)O)Nc1ccccc1 | IC50 |  |  |  | >100 µg/mL |
| Cc1cn(CCC[Si](C)(C)O[Si](C)(C)CCCn2cc(C)c(=O)[nH]c2=O)c(=O)[nH]c1=O | IC50 |  |  |  | 2000 µM |
| O=C(Nc1ccc(Br)cc1C(=O)O)c1cccc(C(=O)Nc2ccc(Br)cc2C(=O)O)n1 | IC50 |  |  |  | >100 µg/mL |
| CC(C)=CCN1C(C)C(=O)Nc2ccc(Cl)cc2S1(=O)=O | IC50 |  | nucleotide incorporation / radiometric |  | 0.94 µM |
| C=C(C)C1CC[C@]2(C(=O)O)CC[C@]3(C)C(CCC4[C@@]5(C)C[C@@H](C(=O)[O-])[C@H](O)C(C)(C)C5CC[C@]43C)C12 | IC50 |  | RT activity |  | 116.9 µg/mL |
| C[Si](O)(CCCn1cnc2c(N)ncnc21)c1ccccc1 | IC50 |  |  |  | 2000 µM |
| Cc1cccc(CN2C(C)C(=O)Nc3ccc(Cl)cc3S2(=O)=O)c1 | IC50 |  | nucleotide incorporation / radiometric |  | 1 µM |
| c1ccc2c(c1)c(N1CCc3[nH]ccc3C1)nn1c(C3CC3)nnc21 | IC50 | 98US_MSC5016 | RT activity / fluorescence |  | 5.54 µM |
| CCCc1cc(=O)oc2c3c(c4c(c12)OC(C)(C)C=C4)O[C@H](C)C[C@@H]3O | IC50 |  | nucleotide incorporation / radiometric | RT-L100I | 9.7 µM |
| CCN1c2ncc(CCOc3ccc(C(=O)Nc4cccn(CC(=O)O)c4=O)cc3C)cc2C(=O)N(C)c2cccnc21 | IC50 | IIIB | nucleotide incorporation / radiometric | RT-K103N Y181C | 0.05–0.1 µM |
| C[Si](C)(CCCn1cnc2c(N)ncnc21)O[Si](C)(C)CCCn1cnc2c(N)ncnc21 | IC50 |  |  |  | >2000 µM |
| CCN1c2ncc(CCOc3ccc(N(C)c4ccc(C(=O)O)cc4)cc3C)cc2C(=O)N(C)c2cccnc21 | IC50 | IIIB | nucleotide incorporation / radiometric |  | <0.05 µM |
| CCCCCCCCCCCCCCOC(=O)Nc1c(O)c2ccc(O[C@@H]3OC(C)(C)[C@H](CO)[C@@H](OC(N)=O)[C@H]3O)c(C)c2oc1=O | IC50 |  | radiometric |  | 30 µM |
| CCN1c2ncc(CCOc3ccc(C(=O)N4CCC(C(=O)O)CC4)cc3C)cc2C(=O)N(C)c2cccnc21 | IC50 | IIIB | nucleotide incorporation / radiometric | RT-K103N Y181C | 0.05–0.1 µM |
| Cc1cn([C@H]2C[C@H](F)[C@@H](COP(=O)(O)OP(=O)(O)OP(=O)(O)O)O2)c(=O)[nH]c1=O | IC50 | IIIB |  |  | 0.2 µM |
| Cc1nnc2ccc(N3CCc4ccccc4C3)nn12 | IC90 | 98US_MSC5016 | RT activity / fluorescence |  | 48.9 µM |
| CCN1c2ncc(CCOc3ccc(Nc4ccc(C(=O)O)cn4)cc3C)cc2C(=O)N(C)c2cccnc21 | IC50 | IIIB | nucleotide incorporation / radiometric | RT-K103N Y181C | <0.05 µM |

The last 3 rows once more:

structure | measure | strain or isolate | method | mutations | value
Cc1cn([C@H]2C[C@H](F)[C@@H](COP(=O)(O)OP(=O)(O)OP(=O)(O)O)O2)c(=O)[nH]c1=O | IC50 | IIIB |  |  | 0.2 µM
Cc1nnc2ccc(N3CCc4ccccc4C3)nn12 | IC90 | 98US_MSC5016 | RT activity / fluorescence |  | 48.9 µM
CCN1c2ncc(CCOc3ccc(Nc4ccc(C(=O)O)cn4)cc3C)cc2C(=O)N(C)c2cccnc21 | IC50 | IIIB | nucleotide incorporation / radiometric | RT-K103N Y181C | <0.05 µM